Results reported in patent US9206463B2, “Method of testing a disinfectant or antibiotic using phenanthridium derivatives” (Montana State University, priority 2006, dated 2015).

Legend:
Streptococcus sobrinus = experiment: genomic DNA yield of live and dead cells after PMA or EMA treatment; format: cell-based; details: for genomic DNA yield of dead cells after PMA treatment: isopropanol-killed cells
Staphylococcus aureus = experiment: genomic DNA yield of live cells after EMA treatment; details: EMA 50 μM
Listeria monocytogenes [1] = experiment: as above; details: EMA 50 μM
Mycobacterium avium = experiment: as above; details: EMA 50 μM
Salmonella typhimurium = experiment: as above; details: EMA 50 μM
Serratia marcescens = experiment: as above; details: EMA 50 μM
Pseudomonas syringae = experiment: as above; details: EMA 50 μM
8 bacterial species = experiment: genomic DNA yield of live and dead cells after PMA or EMA treatment, wider spectrum of bacterial species; format: cell-based; details: all species tested, 50 μM, 5 minutes
Listeria monocytogenes [2] = experiment: benzalkonium disinfection, loss of culturability by plate counts; format: cell-based; details: 30 minutes exposure
Listeria monocytogenes [3] = format: cell-based

With `CC[n+]1c(-c2ccccc2)c2cc(N=[N+]=[N-])ccc2c2ccc(N)cc21.[Br-]` [EMA] the “loss of DNA due to EMA treatment of live cells” value (“loss of DNA due” for short) (Streptococcus sobrinus; live cells, EMA 50 μM) was “significant loss of DNA”, the “loss of DNA due” value (Staphylococcus aureus) was “significant loss of DNA” and the “loss of DNA due” value (Listeria monocytogenes [1]) was “significant loss of DNA”. For the same compound, the “loss of DNA due” value (Mycobacterium avium) was “significant loss of DNA”, the “loss of DNA due” value (Salmonella typhimurium) was “without any loss of DNA” and the “loss of DNA due” value (Serratia marcescens) was “without any loss of DNA”. The “loss of DNA due” value (Pseudomonas syringae) was “a certain loss of DNA”.

With `CC[N+](C)(CC)CCC[n+]1c(-c2ccccc2)c2cc(N=[N+]=[N-])ccc2c2ccc(N)cc21.[Cl-].[Cl-]` [PMA] the “genomic DNA yield of dead cells after PMA treatment” value (Streptococcus sobrinus; PMA 3 μM) was “significant DNA background”, the “genomic DNA yield of dead cells after PMA treatment” value (Streptococcus sobrinus; PMA 30 and 240 μM) was “efficiently removed the DNA from dead cells” and the “DNA from dead cells after dye treatment” value (8 bacterial species) was “efficiently removed”.

With benzalkonium chloride [BAC] the “culturability (colonies on plates)” value (Listeria monocytogenes [2]; 55 and 60 ppm benzalkonium) was “No colonies”, the “BAC concentrations that increasingly reduced culturability” value (Listeria monocytogenes [2]; plate counts) was “exceeding 30 ppm” and the “greatest qPCR signal reduction” value (Listeria monocytogenes [3]) was “around 17 PCR cycles”.
